Zika virus NS2B-NS3: effect of single substitutions on growth in cell culture

The scanned region of Zika virus MR766 is shown below (positions 1-308): NS2B is 2-131, NS3 begins at position 132.
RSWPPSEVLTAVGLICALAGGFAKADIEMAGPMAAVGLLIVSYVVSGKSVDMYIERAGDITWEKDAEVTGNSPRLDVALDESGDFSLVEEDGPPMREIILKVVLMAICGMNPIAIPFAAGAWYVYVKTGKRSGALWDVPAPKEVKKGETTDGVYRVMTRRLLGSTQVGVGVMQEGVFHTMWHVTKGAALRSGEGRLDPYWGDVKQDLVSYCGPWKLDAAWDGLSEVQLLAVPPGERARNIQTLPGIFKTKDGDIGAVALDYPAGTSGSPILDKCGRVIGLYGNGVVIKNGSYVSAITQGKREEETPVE

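Pools of virus carrying all single amino acid changes were selected for growth in Huh-7.5 cells. The effect is the change in frequency of a mutant, normalised to wild type, as a mean of three replicate libraries (two for positions 207-308). The study looked for pockets that tolerate few changes, as a guide for inhibitor design.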

Scale: log2 effect, wild type = 0; the lower, the more harmful to the virus.
A change reads original residue, position, new residue.
This list holds changes to asparagine only.
Positions 1-103, 104-206 and 207-308 were made and measured as separate libraries.
Values above 0 are not proof of better growth: six high scorers were tested one by one, five grew less well than wild type and one about as well.
The authors count -1 or higher as tolerated. Position 1 is the last residue of NS2A.

| change | log2 effect |
|---|---|
| R1N | -7.17 |
| S2N | -7.28 |
| W3N | -5.43 |
| P4N | -5.16 |
| P5N | 0.75 |
| S6N | 0.41 |
| E7N | -0.90 |
| V8N | -5.60 |
| L9N | -4.16 |
| T10N | -3.66 |
| A11N | -6.23 |
| V12N | -5.89 |
| G13N | -6.10 |
| L14N | -5.85 |
| I15N | -7.48 |
| C16N | -6.91 |
| A17N | -5.65 |
| L18N | -6.19 |
| A19N | -5.70 |
| G20N | -4.84 |
| G21N | -3.41 |
| F22N | -5.77 |
| A23N | -1.62 |
| K24N | -0.73 |
| A25N | -4.66 |
| D26N | -0.54 |
| I27N | -2.36 |
| E28N | -3.32 |
| M29N | -3.45 |
| A30N | -1.73 |
| G31N | -5.64 |
| P32N | -5.34 |
| M33N | -6.05 |
| A34N | -6.21 |
| A35N | -5.60 |
| V36N | -3.88 |
| G37N | -3.23 |
| L38N | -5.26 |
| L39N | -4.27 |
| I40N | -5.33 |
| V41N | -5.26 |
| S42N | -4.56 |
| Y43N | -6.40 |
| V44N | -5.04 |
| V45N | -5.83 |
| S46N | -1.39 |
| G47N | -1.67 |
| K48N | -3.62 |
| S49N | -0.64 |
| V50N | -2.80 |
| D51N | -4.46 |
| M52N | -5.87 |
| Y53N | -4.35 |
| I54N | -5.59 |
| E55N | -6.31 |
| R56N | -4.71 |
| A57N | -0.47 |
| G58N | -5.97 |
| D59N | -2.62 |
| I60N | -5.17 |
| T61N | -0.41 |
| W62N | -6.20 |
| E63N | -3.90 |
| K64N | 0.35 |
| D65N | -1.87 |
| A66N | -6.15 |
| E67N | -5.81 |
| V68N | -5.95 |
| T69N | -5.29 |
| G70N | -6.07 |
| S72N | -5.75 |
| P73N | -6.29 |
| R74N | -1.37 |
| L75N | -6.85 |
| D76N | -0.50 |
| V77N | -6.20 |
| A78N | 0.18 |
| L79N | -6.31 |
| D80N | -1.90 |
| E81N | -5.96 |
| S82N | 1.24 |
| G83N | -5.61 |
| D84N | -5.42 |
| F85N | -4.65 |
| S86N | -4.79 |
| L87N | -6.25 |
| V88N | -4.69 |
| E89N | 0.80 |
| E90N | -0.84 |
| D91N | -1.10 |
| G92N | -6.37 |
| P93N | -5.62 |
| P94N | -0.91 |
| M95N | -3.00 |
| R96N | -2.82 |
| E97N | -4.79 |
| I98N | -5.79 |
| I99N | -5.61 |
| L100N | -5.71 |
| K101N | -3.76 |
| V102N | -5.45 |
| V103N | -4.83 |
| L104N | -5.55 |
| M105N | -5.78 |
| A106N | -4.94 |
| I107N | -5.16 |
| C108N | -5.98 |
| G109N | -5.21 |
| M110N | -2.18 |
| P112N | -5.05 |
| I113N | -5.57 |
| A114N | -4.66 |
| I115N | -6.07 |
| P116N | -5.47 |
| F117N | -6.08 |
| A118N | -5.85 |
| A119N | -5.90 |
| G120N | -6.70 |
| A121N | -5.41 |
| W122N | -5.27 |
| Y123N | -6.24 |
| V124N | -2.13 |
| Y125N | -5.98 |
| V126N | -1.46 |
| K127N | -4.26 |
| T128N | -0.63 |
| G129N | -4.07 |

Extract of 14 entries:

change,log2 effect
M105N,-5.78
D76N,-0.50
L14N,-5.85
A19N,-5.70
L87N,-6.25
P116N,-5.47
V12N,-5.89
I113N,-5.57
S46N,-1.39
I60N,-5.17
E28N,-3.32
T128N,-0.63
D51N,-4.46
C16N,-6.91

From the data files of Ni et al. 2025, doi:10.1038/s41467-025-63602-z.